Target: HIV-1 CA N-terminal domain (CA^N) mutant M66F (HIV-1)
Test: ITC; CPSF6_(313–327) (10 mM) in the syringe, CA^N (600 µM) in the cell; 50 mM potassium phosphate (pH 7.4), 100 mM NaCl, 1 mM DTT; MicroCal ITC-200

## CPSF6_(313–327) peptide (cleavage and polyadenylation specific factor 6, residues 313–327) (from UniProt Q16630-2 313-327)
  fold reduction of affinity against wild type HIV-1 CA^N: 7 fold

From paper PMC3431306
